Results of unrelated studies side by side (data: NIAID ChemDB).

Shared fields: growth or infection tests; organism: HIV-1; cells: CEM; measure: EC50

Two numbers with a dash give a range or band. An empty or dashed field is not shown. ECn is the concentration giving n% inhibition of infection, replication or growth. Rows are shuffled and stem from different studies.

smiles	strain	mutations	read by	value
Nc1ccn([C@H]2CC[C@@H](CO)O2)c(=O)n1	IIIB-TSAO-m3T(10)(RT-Y181C)	RT-Y181C	syncytia	0.02 µM
CCc1c(Sc2ccccn2)n(COCc2ccccc2)c(=O)[nH]c1=O			XTT	0.0009 µM
CCOP(=O)(C[C@H]1C[C@@H](n2cc(C)c(=O)[nH]c2=O)ON1C)OCC			GFP	>1000 µM
CCOCn1c(Cc2ccccc2)c(C(C)C)c(=O)[nH]c1=O	IIIB		syncytia	0.002 µg/mL
O=CO[C@H]1C[C@H](n2ccc(=O)[nH]c2=O)O[C@@H]1CO			cytopathic effect	>100 µM
CC(C)(C)NC(=O)[C@@H]1CCCN1C(=O)[C@@H](O)[C@H](Cc1ccccc1)NC(=O)[C@H](CC(N)=O)NC(=O)c1cnc2ccccc2n1	IIIB		antigen	0.3 µM
Cc1cn([C@@H]2O[C@H](CO[Si](C)(C)C(C)(C)C)C3(OS(=O)(=O)C=C3N)[C@H]2O[Si](C)(C)C(C)(C)C)c(=O)n(C)c1=O		RT-E138K	syncytia	>10 µM
Cc1ccnc2c1NC(=O)c1cccnc1N2C1CC1	IIIB-TIBO(0.5)(RT-L100I)	RT-L100I	syncytia	0.05 µg/mL
Cc1cn([C@@H]2O[C@H](CO[Si](C)(C)C(C)(C)C)C3(OS(=O)(=O)C=C3N)[C@H]2O[Si](C)(C)C(C)(C)C)c(=O)n(C)c1=O	IIIB		cytopathic effect / trypan blue	0.033 µM
CN(C)CCCNC(=O)c1cc(NC(=O)c2cc(NC(=O)c3cc(NC4C(=O)c5ccccc5C4=O)cn3C)cn2C)cn1C			cytopathic effect / XTT	52 µM
Cc1cn([C@@H]2O[C@H](CO[Si](C)(C)C(C)(C)C)[C@@]3(OS(=O)(=O)C=C3N)[C@H]2O[Si](C)(C)C(C)(C)C)c(=O)[nH]c1=O	IIIB		microscopy	0.03 µM
Nc1ncnc2c1ncn2CCOCP(=O)(O)O	IIIB-Nevirapine(1.0)(RT-Y181C)	RT-Y181C	syncytia	13 µM
Cc1c(Sc2ccccc2)n(COC(CF)COCc2ccccc2)c(=O)[nH]c1=O				0.05–100 µM
CC(C)(C)NC(=O)[C@@H]1CN(Cc2cccnc2)CCN1C[C@@H](O)C[C@@H](Cc1ccccc1)C(=O)N[C@H]1c2ccccc2C[C@H]1O	RF		cytopathic effect / XTT	0.01 µM
Cc1cn([C@H]2C[C@H](N=[N+]=[N-])[C@@H](CO)O2)c(=O)[nH]c1=O	G-691 POST-AZT		syncytia	2.02 µM
Cc1cn([C@@H]2O[C@H](CO[Si](C)(C)C(C)(C)C)[C@@]3(OS(=O)(=O)C=C3N)[C@H]2O[Si](C)(C)C(C)(C)C)c(=O)[nH]c1=O	IIIB TSAO-T(RT-E138K)	RT-E138K	syncytia	4 µM
CCc1cc(NCc2nc3c(Cl)ccc(Cl)c3o2)c(=O)[nH]c1C	IIIB	RT-C181I	syncytia	>15 µM
CC(C)(C)NC(=O)[C@@H]1CCCN1C(=O)[C@@H](O)[C@H](Cc1ccccc1)NC(=O)[C@H](CC(N)=O)NC(=O)c1ccc2ccccc2n1	IIIB		antigen	0.2 µM
CCCCCCCCCCCC(=O)NCC(COP(=O)([O-])OCC[N+](C)(C)C)OCCCCCCCC	IIIB		syncytia	0.19 µM
CN(C)CCCNC(=O)c1cc(NC(=O)c2cc(NC(=O)c3cc(NC(=O)c4ccc(C(=O)Nc5cc(C(=O)Nc6cc(C(=O)Nc7cc(C(=O)NCCCN(C)C)n(C)c7)n(C)c6)n(C)c5)nc4)cn3C)cn2C)cn1C			cytopathic effect / XTT	0.3 µM
Cc1cn([C@H]2C[C@H](N=[N+]=[N-])[C@@H](CO)O2)c(=O)[nH]c1=O	IIIB TIBO R82913 STR-1 (RT L100I Y181C)	RT-L100I Y181C	syncytia	0.009 µM
CCc1cc(NCc2nc3c(Cl)ccc(Cl)c3o2)c(=O)[nH]c1C	IIIB		syncytia	0.007 µg/mL
Nc1ccn([C@@H]2CC[C@H](CO)O2)c(=O)n1				5 µM
O=c1[nH]cc(C2C=CC(CO)(CO)C2)c(=O)[nH]1			XTT	34.8 µM
Cc1ccnc2c1NC(=O)c1cccnc1N2C1CC1	IIIB		syncytia	0.12 µM
CC(C)Nc1cccnc1N1CCN(C(=O)c2cc3cc(NS(C)(=O)=O)ccc3[nH]2)CC1	IIIB	RT-V179D	cytopathic effect	0.13 µg/mL
Cc1cn([C@H]2C=C[C@@H](CO)O2)c(=O)[nH]c1=O	HE			0.43 µM
C=C(COCP(=O)(O)O)C(C)n1ccc(N)nc1=O			XTT	67.1 µM
CCCCCCCCCCOC(CNC(=O)CCCCCCCCC)COP(=O)([O-])OCC[N+](C)(C)C	IIIB		syncytia	0.06 µM
Nc1ccn([C@@H]2O[C@H](CO)C[C@@H]2F)c(=O)n1	LAV		p24 / ELISA	0.92 µg/mL
Cc1ccnc2c1NC(=O)c1cccnc1N2C1CC1	IIIB	RT-E138K	syncytia	0.07 µM
O=S(=O)(O)OC1C(OS(=O)(=O)O)C(OS(=O)(=O)O)C(OS(=O)(=O)O)C(OS(=O)(=O)O)C1OS(=O)(=O)O	NL4-3		RT activity	>250 µg/mL
CCn1c(=O)c(C)cn([C@@H]2O[C@H](CO[Si](C)(C)C(C)(C)C)C3(OS(=O)(=O)C=C3N)[C@H]2O[Si](C)(C)C(C)(C)C)c1=O	IIIB		syncytia	0.09 µM
Cc1cc(S(=O)(=O)NC2=NCCCN2)c(S)cc1Cl			cytopathic effect / MTT	19.4 µM
CC(C)(C)NC(=O)[C@@H]1C[C@@H]2CCCC[C@@H]2CN1C[C@@H](O)[C@H](Cc1ccccc1)NC(=O)[C@H](CC(N)=O)NC(=O)c1ccc2ccccc2n1	RF		cytopathic effect / XTT	0.004 µM
CCc1c(Sc2ccccc2)n(COCc2ccccc2)c(=O)[nH]c1=O	IIIB	RT-C181I	syncytia	0.35 µM
Cc1cc(C(O)(c2cc(C)c(O)c(C(=O)O)c2)c2cc(C)c(O)c(C(=O)O)c2)cc(C(=O)O)c1O			cytopathic effect	>200 µM
CCCCCCCCCCCCCCCCCC(=O)NCC(COP(=O)([O-])OCC[N+](C)(C)C)OCCCCCCCC	IIIB		syncytia	0.67 µM
Cc1cn([C@H]2C[C@H](N=[N+]=[N-])[C@@H](CO)O2)c(=O)[nH]c1=O	HE			0.0086 µM
CC(C)=CCN1Cc2cc(Cl)cc3[nH]c(=S)n(c23)C[C@@H]1C	IIIB nevirapine-resistant (RT Y181C)	RT-Y181C	syncytia	2 µM
CC(C)(C)[Si](C)(C)OC[C@H]1O[C@@H](n2ccc(=O)[nH]c2=O)[C@H](O[Si](C)(C)C(C)(C)C)C12OS(=O)(=O)C=C2N	IIIB		syncytia	0.148 µM
Cc1cn([C@@H]2O[C@H](CO[Si](C)(C)C(C)(C)C)C3(OS(=O)(=O)C=C3N)[C@H]2O[Si](C)(C)C(C)(C)C)c(=O)n(C)c1=O	IIIB TSAO-T(RT-E138K)	RT-E138K	syncytia	>50 µM
CCOCn1c(Cc2cc(C)cc(C)c2)c(CC)c(=O)[nH]c1=O	IIIB		syncytia	0.009 µM
Nc1nc(=O)n([C@@H]2CS[C@H](CO)O2)cc1F	IIIB		syncytia	0.003 µg/mL
Nc1ncnc2c1ncn2CCOCP(=O)(O)O	IIIB	RT-E138K	syncytia	7 µM
CC[C@H](C)[C@H](NC(=O)c1ccccc1SSc1ccccc1C(=O)N[C@H](C(=O)O)[C@@H](C)CC)C(=O)O	AZT-resistant		p24 / RT activity	14.5 µM
Nc1nc(NC2CC2)c2ncn(C3C=C[C@@H](CO)C3)c2n1	HE			5.9 µM
Cc1cn([C@@H]2C=C[C@H](CO)O2)c(=O)[nH]c1=O	LAV		p24	>100 µM
Cc1cn([C@H]2C[C@H](F)[C@@H](CO)O2)c(=O)[nH]c1=O	LAV		p24	0.16–0.45 µM
Cc1cn([C@@H]2O[C@H](CO[Si](C)(C)C(C)(C)C)C3(OS(=O)(=O)C=C3N)[C@H]2O[Si](C)(C)C(C)(C)C)c(=O)n(C)c1=O	IIIB	RT-V106A	syncytia	1.15 ± 0.49 µM
C=C(COCP(=O)(O)O)C(C)n1cnc2c(=O)[nH]c(N)nc21			XTT	32.4 µM
CC(C)=CCOc1cc(NC(=S)c2ccoc2C)ccc1Cl	IIIB		cytopathic effect	0.002 µg/mL
CC(C)=CCN1Cc2cccc3[nH]c(=S)n(c23)C[C@@H]1C	IIIB		microscopy	0.01 µM
Nc1ncc(C2C=CC(CO)(CO)C2)c(=O)[nH]1			XTT	66.2 µM
COc1ccc2c(c1)N(C(=O)OC(C)C)[C@@H](CSC)C(=S)N2	IIIB		syncytia	0.001 µg/mL
Cc1c(Sc2ccccc2)n(COC(CN=[N+]=[N-])COCc2ccccc2)c(=O)[nH]c1=O				0.05–100 µM
Cc1occc1C(=S)Nc1ccc(Cl)c(/C=N/OC(C)(C)C)c1	IIIB	RT-Y181C	cytopathic effect	0.03 µg/mL
Nc1ccn([C@H]2CC[C@@H](CO)O2)c(=O)n1				1.5 µM
Nc1ccn([C@@H]2O[C@H](CO)C=C2F)c(=O)n1	LAV		p24 / ELISA	10.9 µg/mL
FCC1CO1				0.05–100 µM
CC(C)[C@H](NC(=O)N(C)Cc1ccccn1)C(=O)N[C@@H](Cc1ccccc1)[C@H](O)[C@H](O)[C@H](Cc1ccccc1)NC(=O)[C@@H](NC(=O)N(C)Cc1ccccn1)C(C)C	IIIB		p24	0.124 µM
CCn1c(=O)c(C)cn([C@@H]2O[C@H](CO[Si](C)(C)C(C)(C)C)C3(OS(=O)(=O)C=C3N)[C@H]2O[Si](C)(C)C(C)(C)C)c1=O	IIIB TIBO R82913 STR-1 (RT L100I Y181C)	RT-L100I Y181C	syncytia	>50 µM
Cc1cn([C@@H]2O[C@H](CO)C3(OS(=O)(=O)C=C3N)[C@H]2O)c(=O)[nH]c1=O	IIIB		syncytia	>300 µM
[B-][P@](=O)(OC[C@H]1O[C@@H](n2cc(C)c(=O)[nH]c2=O)C[C@@H]1N=[N+]=[N-])OP(=O)(O)C(F)(F)P(=O)(O)O				1.1 µM
C=C(COCP(=O)(O)O)C(C)n1cc(C)c(=O)[nH]c1=O			XTT	>100 µM

Repeating the final 8 entries:

smiles,strain,mutations,read by,value
Nc1ccn([C@H]2CC[C@@H](CO)O2)c(=O)n1,,,,1.5 µM
Nc1ccn([C@@H]2O[C@H](CO)C=C2F)c(=O)n1,LAV,,p24 / ELISA,10.9 µg/mL
FCC1CO1,,,,0.05–100 µM
CC(C)[C@H](NC(=O)N(C)Cc1ccccn1)C(=O)N[C@@H](Cc1ccccc1)[C@H](O)[C@H](O)[C@H](Cc1ccccc1)NC(=O)[C@@H](NC(=O)N(C)Cc1ccccn1)C(C)C,IIIB,,p24,0.124 µM
CCn1c(=O)c(C)cn([C@@H]2O[C@H](CO[Si](C)(C)C(C)(C)C)C3(OS(=O)(=O)C=C3N)[C@H]2O[Si](C)(C)C(C)(C)C)c1=O,IIIB TIBO R82913 STR-1 (RT L100I Y181C),RT-L100I Y181C,syncytia,>50 µM
Cc1cn([C@@H]2O[C@H](CO)C3(OS(=O)(=O)C=C3N)[C@H]2O)c(=O)[nH]c1=O,IIIB,,syncytia,>300 µM
[B-][P@](=O)(OC[C@H]1O[C@@H](n2cc(C)c(=O)[nH]c2=O)C[C@@H]1N=[N+]=[N-])OP(=O)(O)C(F)(F)P(=O)(O)O,,,,1.1 µM
C=C(COCP(=O)(O)O)C(C)n1cc(C)c(=O)[nH]c1=O,,,XTT,>100 µM